Results of unrelated studies side by side (data: NIAID ChemDB).

All rows: whole-cell or culture tests; organism: Candida albicans; endpoint: MIC

Neighbouring rows are from separate reports. Blank or dashed fields: not listed here.

smiles,strain or isolate,method,result
C[C@@H](n1cnc2cc(NCc3ccccc3)ccc2c1=O)[C@](O)(Cn1cncn1)c1ccc(F)cc1F,60 strains,,≤0.03 µg/mL
Clc1ccc(C(Cn2ccnc2)OCc2cccc3ccccc23)c(Cl)c1,CA2,,2 µg/mL
CCCCCCC(=O)O[C@@H]1Cc2c(O)cc(O)cc2O[C@@H]1c1ccc(O)c(O)c1,ATCC 10231,,128 µg/mL
CCOC(=O)c1csc(NC(=O)CSc2nnc(C(C)Oc3ccccc3)n2-c2ccccc2)n1,NRRL Y-27077,,>16 µg/mL
CCOC1Oc2ccccc2C(=O)/C1=C\Nc1ccc(C(=O)O)c(O)c1,,,10 µg/mL
Cc1nc(-c2cncc(Cl)n2)[nH][n+]1-c1ccccc1,,broth dilution,>256 µg/mL
C[C@@H](n1cnc2c(Br)cc(Br)cc2c1=O)[C@](O)(Cn1cncn1)c1ccc(F)cc1F,406 strains,,≤0.03 µg/mL
CC1C=C(c2cccc(Br)c2)C(=O)O1,ATCC 44859,,>125 µM
c1ccc(-c2ccc(COC(Cn3ccnc3)c3ccccc3)cc2)cc1,PR1,,>128 µg/mL
C[C@@H](c1ncncc1F)[C@](O)(Cn1cncn1)c1ccc(F)cc1F,OY-2-76 (FLU-S),,8 µg/mL
NC(=NNc1ccccc1)c1cncc(Cl)n1,,broth dilution,32 µg/mL
CC(C)(C)c1ccc(COC(Cn2ccnc2)c2ccccc2)cc1,CA7,,128 µg/mL
Cc1ccc(OC(C)c2nnc(SCC(=O)Nc3nccs3)n2C2CCCCC2)cc1,Clinical isolates,,>16 µg/mL
Cc1c(Cl)[n+](=O)c2cc(Cl)ccc2n1[O-],Clinical isolate 13,,7.8 µg/mL
COC(=O)Cc1csc(NC(=O)CSc2nnc(C(C)Oc3ccccc3)n2C2CCCCC2)n1,Clinical isolates,,>16 µg/mL
Cc1onc(-c2cccc(Cl)c2)c1C=O,,,>50 µg/mL
C[C@@H](n1cnc2cc(F)ccc2c1=O)[C@](O)(Cn1cncn1)c1ccc(F)cc1F,76 strains,,0.31 µg/mL
CCOc1cc2c(cc1F)n([O-])c(C)c(Cl)[n+]2=O,Clinical isolate 12,,62.5 µg/mL
CC1C=C(c2cc3ccccc3s2)C(=O)O1,ATCC 44859,,>125 µM
O=Cc1cc(-c2ccc(F)cc2)on1,,,50 µg/mL
Clc1ccc(COC(Cn2ccnc2)c2ccc(Cl)cc2Cl)c(Cl)c1,ATCC 10231,,6.25 µg/mL
c1ccc(C(Cn2ccnc2)OCc2cccc3ccccc23)cc1,CA12,,128 µg/mL
Nc1[nH]c(=O)ncc1F,2716,,0.13 µg/mL
O=Cc1cc(-c2ccc([N+](=O)[O-])cc2)no1,,,50 µg/mL
OCCNc1nnc2c(cnc3ccccc32)n1,M-3,,40 µg/mL
C[C@@H](n1cnc2c(Cl)cc(Cl)cc2c1=O)[C@](O)(Cn1cncn1)c1ccc(F)cc1F,60 strains,,0.07 µg/mL
CCOc1cc2c(cc1F)n([O-])c(C)c(S(=O)(=O)c1ccccc1)[n+]2=O,Clinical isolate 24,,15.6 µg/mL
CC1C=C(c2ccc(Br)c(Br)c2)C(=O)O1,ATCC 44859,,>125 µM
Cc1ccc(C(Cn2ccnc2)OCc2ccc(-c3ccccc3)cc2)cc1,PR1,,128 µg/mL
CSc1ccc2c(=O)n([C@H](C)[C@](O)(Cn3cncn3)c3ccc(F)cc3F)cnc2c1,406 strains,,≤0.03 µg/mL
CCCCCC1C=C(c2ccc(Br)cc2)C(=O)O1,ATCC 44859,,>125 µM
Clc1ccc(C(Cn2ccnc2)OCc2ccc(-c3ccccc3)cc2)cc1,Y0109,,>128 µg/mL
COc1cncc(-c2nc(-c3ccccc3)[n+](-c3ccccc3)[nH]2)n1,,broth dilution,>256 µg/mL
CCOC(=O)c1csc(NC(=O)CSc2nnc(C(C)Oc3ccc(C)cc3)n2C2CCCCC2)n1,NRRL Y-27077,,>16 µg/mL
O=[n+]1c(Sc2ccccc2)c(CBr)n([O-])c2ccccc21,Clinical isolate 13,,15.6 µg/mL
Nc1nnc2c(cnc3ccccc32)n1,M-3,,30 µg/mL
C[C@@H](n1cnc2cc(Oc3ccc(Cl)cc3)ccc2c1=O)[C@](O)(Cn1cncn1)c1ccc(F)cc1F,76 strains,,80 µg/mL
Cn1nc(-c2cnccn2)n(N2CCOCC2)c1=S,,broth dilution,>256 µg/mL
COc1ccc2cc3[n+](cc2c1OC)CCc1cc2c(cc1-3)OCO2,ATCC 10231,,250 µg/mL
CCCCCCCCC(=O)O[C@@H]1Cc2c(O)cc(O)cc2O[C@@H]1c1ccc(O)c(O)c1,ATCC 10231,,16 µg/mL
Cc1ccc(C(Cn2ccnc2)OCc2cccc3ccccc23)cc1,CA2,,128 µg/mL
O=Cc1cc(-c2ccccc2Br)no1,,,50 µg/mL

Repeating the final 5 entries:

Cn1nc(-c2cnccn2)n(N2CCOCC2)c1=S ; method: broth dilution ; result: >256 µg/mL
COc1ccc2cc3[n+](cc2c1OC)CCc1cc2c(cc1-3)OCO2 ; strain or isolate: ATCC 10231 ; result: 250 µg/mL
CCCCCCCCC(=O)O[C@@H]1Cc2c(O)cc(O)cc2O[C@@H]1c1ccc(O)c(O)c1 ; strain or isolate: ATCC 10231 ; result: 16 µg/mL
Cc1ccc(C(Cn2ccnc2)OCc2cccc3ccccc23)cc1 ; strain or isolate: CA2 ; result: 128 µg/mL
O=Cc1cc(-c2ccccc2Br)no1 ; result: 50 µg/mL